Data reported in paper PMC6400076 (Frontiers in Microbiology, 2019).

How the values were obtained:
Test in all cases: purified protein
Conditions in all cases: pH 8.5; 25.0 °C
[1] = system: NC(=O)c1ccc[n+]([C@@H]2O[C@H](COP(=O)(O)OP(=O)(O)OC[C@H]3O[C@@H](n4cnc5c(N)ncnc54)[C@H](O)[C@@H]3O)[C@@H](O)[C@H]2O)c1
O=C[C@H](O)COP(=O)(O)O = system: O=C[C@H](O)COP(=O)(O)O
O=P(O)(O)O = system: O=P(O)(O)O

Substance: CpGAPDH (Clostridium perfringens SM101)
- K0.5 [1]: 0.18 ± 0.01 mM
- Vmax [1]: 408000 µM/min/mg
- kcat/Km [1]: 378000 M⁻¹ s⁻¹
- K0.5 (O=C[C@H](O)COP(=O)(O)O): 2.8 ± 0.2 mM
- Vmax (O=C[C@H](O)COP(=O)(O)O): 636000 µM/min/mg
- kcat/Km (O=C[C@H](O)COP(=O)(O)O): 38000 M⁻¹ s⁻¹
- K0.5 (O=P(O)(O)O): 8.4 ± 0.4 mM
- Vmax (O=P(O)(O)O): 522000 µM/min/mg
- kcat/Km (O=P(O)(O)O): 10000 M⁻¹ s⁻¹
